We go through two sequences from paper PMC4954732.

For at least one entry, the source does not settle the construct or the ends of the probe. For part of these data: No signal at the amounts used counts as a negative. For part of these data: The comparison behind a weaker result is the experiment's own reference, which may not be listed here.

Data set [1] relates to CBC (HapB/HapC/HapE) + HapX. Kind of data set: SPR. To be noted: HapX co-injected on preformed CBC/DNA, SPR on immobilised biotinylated duplexes, 1:1 model with mass transport, pH and temperature not stated (protocols of refs 19, 54), recombinant protein, label: 5' biotin on strand 1.
For data set [2], the system named is CBC P88L (HapB/HapC/HapE P88L) (Aspergillus fumigatus). Kind of data set: SPR. Conditions: Kd only in figure; SPR on immobilised biotinylated duplexes, 1:1 model with mass transport; pH and temperature not stated (protocols of refs 19, 54); recombinant protein; label: 5' biotin on strand 1.

As for “GCTGAGCCGAATGAATCACGCGGTCCGGATGTGTGCT (double strand) [cyp51A-TR34]”, the binding result in data set [1] (combinatorial recognition not detectable) is recorded as “no binding”.
With “GCTGAGCCGAATGAAAGTTGCCTAATTACTAAGGTGT (double strand) [cyp51A-293]”, the binding result in data set [2] is “binds more weakly”; in data set [1] (synergistic, Kd only in figure), “binds”.
